For at least one entry, the source does not settle the construct or the ends of the probe. At least one verdict was read from the data and is not stated in words by the source. Protein sequences can lack the tags named with them.
Biological target: T1, E2 (UniProt P03120)
T1 sequence (looked up): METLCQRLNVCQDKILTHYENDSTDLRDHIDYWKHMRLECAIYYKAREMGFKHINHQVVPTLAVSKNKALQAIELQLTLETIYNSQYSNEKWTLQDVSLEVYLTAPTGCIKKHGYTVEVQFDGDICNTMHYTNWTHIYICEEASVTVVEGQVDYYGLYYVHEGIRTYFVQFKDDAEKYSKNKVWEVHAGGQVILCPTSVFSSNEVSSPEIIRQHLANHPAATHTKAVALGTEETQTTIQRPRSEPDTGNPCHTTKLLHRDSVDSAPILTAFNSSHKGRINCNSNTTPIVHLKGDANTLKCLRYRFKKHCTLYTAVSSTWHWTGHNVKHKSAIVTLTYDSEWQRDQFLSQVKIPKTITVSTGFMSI
Assay: EMSA
Settings: 4 mM Mg2+, 1.4 mM ATP, E2 2.8 nM, C1* complex; recombinant protein; residues 1-365; protein details: C-terminal 10xHis; label: 5' 32P

Sequence: GGCGGGACCGAAAACGGTTCAACCGAAAACGGTTATATATAAACCAGCCC (double strand) [Oligo II, E2 BS1+2 (50 bp)]
- binding result: binds

— publication PMC12072466, “Mechanisms of Viral DNA Replication of Human Papillomavirus: E2 Protein-Dependent Recruitment of E1 DNA Helicase to the Origin of DNA Replication” (International Journal of Molecular Sciences, 2025)
